# Source: US7122193B1 (priority 1994, dated 2006)
# Biological target: serum of guinea-pigs immunized against peptide 141-159 (variant USA)
# Assay: BIAcore competition; immobilised (c) FP-L as competitor; serum 1:10
substance,measurement,value
"FP peptide (region 141-159 of VP1 of FMDV serotype A12, strain USA, with N-terminal cysteine), L form",amount of inhibitor peptide required to inhibit by 50% the bonding,25 µg
